Compound potency records, mixed from different reports. Data source: NIAID ChemDB in PubChem.

All rows: tests in culture; agent: Herpes simplex virus 2; cells: VERO; endpoint: EC50

ECn is the concentration giving n% inhibition of infection, replication or growth.

SMILES	strain or isolate	method	value
O=C(O)P(=O)(O)O	K979	cytopathic effect	>238 µM
CCn1cc(C(=O)NCCN)c(=O)c2ccc(-c3ccncc3)cc21	-	plaque count	>100 µg/mL
Nc1nc(=O)n([C@H]2O[C@@H](CO)C[C@H]2F)cc1Br	-	-	>100 µM
O=C(CP(=O)(O)O)OC[C@H]1O[C@@H](n2cc(CCCl)c(=O)[nH]c2=O)C[C@@H]1O	TK-	cytopathic effect	>72.7 µM
CC(=O)O[C@H]1C[C@H](n2cc(/C=C/Br)c(=O)[nH]c2=O)O[C@@H]1COP1(=O)OCc2ccccc2O1	G (TK+)	plaque count	>128 µg/mL
CC(C)(C)c1ccc(-n2cc(C(N)=O)c(=O)c3ccc(-c4ccncc4)cc32)cc1	-	plaque count	>25 µg/mL
Nc1nc2c(ncn2[C@H]2O[C@@H](CO)C[C@@H]2F)c(=O)[nH]1	-	-	>100 µM
C[C@@H](N)C(=O)O[C@H]1C[C@H](n2cc(/C=C/Br)c(=O)[nH]c2=O)O[C@@H]1COP1(=O)OCc2ccccc2O1	G (TK+)	plaque count	>128 µg/mL
Nc1nc2c(ncn2COCCO)c(=O)[nH]1	K979	cytopathic effect	>1.3 µM
NC(=O)c1cn(-c2ccc(F)cc2)c2cc(-c3cc[n+]([O-])cc3)ccc2c1=O	-	plaque count	>12.5 µg/mL
Cc1cccc2c1OP(=O)(OC[C@H]1O[C@@H](n3cc(/C=C/Br)c(=O)[nH]c3=O)C[C@@H]1OC(=O)[C@H](N)C(C)C)OC2	G (TK+)	plaque count	>128 µg/mL
O=c1[nH]c(=O)n([C@H]2O[C@@H](CO)C[C@H]2F)cc1I	-	-	>100 µM
O=c1[nH]c(=O)n([C@H]2C[C@H](O)[C@@H](CO)O2)cc1CCCl	K979	cytopathic effect	>102 µM
CCC(C)C(N)C(=O)O[C@H]1C[C@H](n2cc(/C=C/Br)c(=O)[nH]c2=O)O[C@@H]1COP1(=O)OCc2cccc(C)c2O1	G (TK+)	plaque count	>128 µg/mL
CCn1cc(C(=O)N(C)C)c(=O)c2ccc(-c3ccncc3)cc21	-	plaque count	>100 µg/mL
CC(C)C(=O)O[C@H]1C[C@H](n2cc(/C=C/Br)c(=O)[nH]c2=O)O[C@@H]1COP1(=O)OCc2ccccc2O1	G (TK+)	plaque count	>128 µg/mL
O=c1[nH]c(=O)n(C2OC(CO)CC2F)cc1I	-	-	>100 µM
CCn1cc(C#N)c(=O)c2ccc(-c3ccncc3)cc21	-	plaque count	>100 µg/mL
CC(C)(C)c1cccc2c1OP(=O)(OC[C@H]1O[C@@H](n3cc(/C=C/Br)c(=O)[nH]c3=O)C[C@@H]1O)OC2	G (TK+)	plaque count	>128 µg/mL

2 of the rows above, restated:

{"SMILES": "O=c1[nH]c(=O)n([C@H]2O[C@@H](CO)C[C@H]2F)cc1I", "value": ">100 µM"}
{"SMILES": "NC(=O)c1cn(-c2ccc(F)cc2)c2cc(-c3cc[n+]([O-])cc3)ccc2c1=O", "method": "plaque count", "value": ">12.5 µg/mL"}

Blank or dashed fields: not listed here. Rows are shuffled and stem from different studies.